Measured values from several laboratories, pooled; numbers as filed in NIAID ChemDB.

All rows: toxicity to cultured cells; cell line: MT-4; read-out: CC50

Lines come from different laboratories, so protocols vary. An empty or dashed field is not shown. CCn: concentration that lowers growth or viability of the cells by n%.

{"compound": "C/C=C(\\C)C(=O)O[C@@]12[C@H](O)[C@@H](C)[C@@]3(O)[C@@H](C=C(COC(=O)CCCCCCC/C=C\\C/C=C\\CCCCC)C[C@]4(O)C(=O)C(C)=C[C@@H]34)[C@@H]1C2(C)C", "value": ">62.5 µg/mL"}
{"compound": "Cc1cn([C@H]2C[C@H](N=[N+]=[N-])[C@@H](CO)O2)c(=O)[nH]c1=O", "value": "35.6 µM"}
{"compound": "Cc1cn([C@H]2C[C@H](N=[N+]=[N-])[C@@H](COC(=O)CCC(=O)OC[C@H]3O[C@@H]4O[C@H]5[C@H](O)[C@@H](O)[C@@H](O[C@H]6[C@H](O)[C@@H](O)[C@@H](O[C@H]7[C@H](O)[C@@H](O)[C@@H](O[C@H]8[C@H](O)[C@@H](O)[C@@H](O[C@H]9[C@H](O)[C@@H](O)[C@@H](O[C@H]3[C@H](O)[C@H]4O)O[C@@H]9CO)O[C@@H]8CO)O[C@@H]7CO)O[C@@H]6CO)O[C@@H]5CO)O2)c(=O)[nH]c1=O", "read by": "MTT", "value": "8.38 µg/mL"}
{"compound": "Cc1c(Cc2ccccc2)[nH]c(=O)[nH]c1=O", "value": ">1000 µM"}
{"compound": "Cc1cn([C@H]2C[C@H](O)[C@@H](CO)[Se]2)c(=O)[nH]c1=O", "value": ">100 µM"}
{"compound": "Cc1c(Cc2ccccc2)nc(OC(C)C)[nH]c1=O", "value": "243 µM"}
{"compound": "COc1cc(O)ccc1CCCc1cc(O)c2c(c1CC=C(C)C)C=CC(C)(C)O2", "value": "10 µg/mL"}
{"compound": "CCOC(=O)CN(CC)S(=O)(=O)c1cc(Cl)ccc1[N+](=O)[O-]", "read by": "MTT", "value": ">200 µM"}
{"compound": "CCCN1C(=O)N(Cc2ccccc2)S(=O)(=O)c2cscc21", "value": ">743.1 µM"}
{"compound": "C1CNCCNCCCN(CCCN2CCCNCCNCCCNCC2)CCNC1", "value": ">250 µg/mL"}
{"compound": "CC1C(=O)Nc2ccc(Cl)cc2S(=O)(=O)N1Cc1cc(Cl)cc(Cl)c1", "read by": "MTT", "value": ">200 µM"}
{"compound": "CCCCCCCCCC(=O)O[C@@]12[C@H](OCOC)[C@@H](C)[C@@]3(O)[C@@H](C=C(CO)C[C@]4(O)C(=O)C(C)=C[C@@H]34)[C@@H]1C2(C)C", "read by": "MTT", "value": "8.3 µg/mL"}
{"compound": "O=C1Nc2cscc2S(=O)(=O)N1Cc1ccccc1", "value": "78.8 µM"}
{"compound": "COc1nc(Cc2ccccc2)cc(=O)[nH]1", "value": ">1000 µM"}
{"compound": "Cc1cc(C)nc(NS(=O)(=O)c2ccc(N=C3C(=O)Nc4ccc(Cl)cc43)cc2)n1", "value": ">125 µg/mL"}
{"compound": "C/C=C(/C)C(=O)O[C@@H]1[C@@H](C)[C@@]2(O)C(C=C(CO)C[C@]3(O)C(=O)C(C)=CC23)C2C(C)(C)[C@@]21OC(=O)C(C)CC", "value": ">62.5 µg/mL"}
{"compound": "CC1C(=O)Nc2ccc(Cl)cc2S(=O)(=O)N1CC1OC1(C)C", "read by": "MTT", "value": "57 µM"}
{"compound": "Cc1cn([C@H]2C[C@H](N=[N+]=[N-])[C@@H](COC(=O)CCC(=O)OCC3OC4OC5C(COS(=O)(=O)O)OC(OC6C(COS(=O)(=O)O)OC(OC7C(COS(=O)(=O)O)OC(OC8C(COS(=O)(=O)O)OC(OC9C(COS(=O)(=O)O)OC(OC3C(OS(=O)(=O)O)C4OS(=O)(=O)O)C(OS(=O)(=O)O)C9OS(=O)(=O)O)C(OS(=O)(=O)O)C8OS(=O)(=O)O)C(OS(=O)(=O)O)C7OS(=O)(=O)O)C(OS(=O)(=O)O)C6OS(=O)(=O)O)C(OS(=O)(=O)O)C5OS(=O)(=O)O)O2)c(=O)[nH]c1=O", "read by": "MTT", "value": ">100 µg/mL"}
{"compound": "O=S(=O)(O)OCC1OC2OC3C(COS(=O)(=O)O)OC(OC4C(COS(=O)(=O)O)OC(OC5C(COS(=O)(=O)O)OC(OC6C(COS(=O)(=O)O)OC(OC7C(COS(=O)(=O)O)OC(OC8C(COS(=O)(=O)O)OC(OC1C(OS(=O)(=O)O)C2OS(=O)(=O)O)C(OS(=O)(=O)O)C8OS(=O)(=O)O)C(OS(=O)(=O)O)C7OS(=O)(=O)O)C(OS(=O)(=O)O)C6OS(=O)(=O)O)C(OS(=O)(=O)O)C5OS(=O)(=O)O)C(OS(=O)(=O)O)C4OS(=O)(=O)O)C(OS(=O)(=O)O)C3OS(=O)(=O)O", "value": ">250 µg/mL"}
{"compound": "Cc1nc2ccccc2c(-c2ccc3c4c(ccnc24)[C@H]2C[C@@H]32)c1[C@H](OC(C)(C)C)C(=O)O", "read by": "ATP", "value": ">53.2 µM"}
{"compound": "Cc1cn([C@H]2C[C@H](N=[N+]=[N-])[C@@H](CO)O2)c(=O)[nH]c1=O", "value": ">65.9 µg/mL"}
{"compound": "CN1C(=O)N(Cc2ccccc2)c2cscc2S1(=O)=O", "value": "79.1 µM"}
{"compound": "Cc1cn([C@H]2C[C@H](N=[N+]=[N-])[C@@H](CO)O2)c(=O)[nH]c1=O", "value": "80 µM"}
{"compound": "CCCCCCCCCC(=O)O[C@@]12[C@H](OC(C)=O)[C@@H](C)[C@@]3(O)[C@@H](C=C(CO)C[C@]4(O)C(=O)C(C)=C[C@@H]34)[C@@H]1C2(C)C", "value": ">62.5 µg/mL"}
{"compound": "Nc1ncnc2c1ncn2C[C@H](CF)OCP(=O)(O)O", "value": ">100 µg/mL"}
{"compound": "Cc1cn([C@H]2C[C@H](N=[N+]=[N-])[C@@H](CO)O2)c(=O)[nH]c1=O", "value": "35 µg/mL"}
{"compound": "CC(C)c1nc(COC(N)=O)n(Cc2ccncc2)c1S(=O)(=O)c1cc(Cl)cc(Cl)c1", "value": ">0.5 µg/mL"}
{"compound": "CC1=CC2c3c(O)cc(-c4cc5ccc(O)cc5o4)cc3OC3(c4ccc(O)cc4O)Oc4cc(O)ccc4C(C1)C23", "value": "2 µg/mL"}
{"compound": "Cc1cn([C@H]2C[C@H](N=[N+]=[N-])[C@@H](CO)O2)c(=O)[nH]c1=O", "value": "3.2 µg/mL"}
{"compound": "O=C1Nc2cscc2S(=O)(=O)N1c1ccccc1Br", "value": ">695 µM"}
{"compound": "CCCCCCCCCC(=O)O[C@@]12[C@H](OCOC)[C@@H](C)[C@@]3(O)[C@@H](C=C(COC)C[C@]4(O)C(=O)C(C)=C[C@@H]34)[C@@H]1C2(C)C", "read by": "MTT", "value": "4 µg/mL"}
{"compound": "CO[C@@H]1[C@@H](OC(=O)c2ccc(C)[nH]2)[C@@H](O)C(Oc2ccc3c(O)c(NC(=O)c4c[nH]c(C(=O)Nc5c(O)c6ccc(OC7OC(C)(C)[C@H](OC)[C@@H](OC(=O)c8ccc(C)[nH]8)[C@H]7O)c(C)c6oc5=O)c4C)c(=O)oc3c2C)OC1(C)C", "value": "3.3 µg/mL"}
{"compound": "O=C(O)C(=O)CC(=O)c1cc(OCc2ccccc2)cc(OCc2ccccc2)c1", "read by": "MTS", "value": "88.3 µM"}
{"compound": "CC(C)=CCN1Cc2cc(Cl)cc3[nH]c(=S)n(c23)C[C@@H]1C", "read by": "MTT", "value": "30 µM"}
{"compound": "CN=C1CN=C(c2ccc[nH]2)c2cc(Cl)ccc2N1", "value": "46 µM"}
{"compound": "C[C@@H](Cn1cnc2c(N)nc(N)nc21)OCP(=O)(O)O", "value": ">100 µg/mL"}
{"compound": "CN1C(=O)N(Cc2ccccc2)S(=O)(=O)c2csc([N+](=O)[O-])c21", "value": "37.1 µM"}
{"compound": "CCn1cc(C(=O)O)c(=O)c2ccc(C)nc21", "value": ">250 µg/mL"}
{"compound": "CCN1C(=O)N(Cc2ccccc2)S(=O)(=O)c2cscc21", "value": "775.4 µM"}
{"compound": "CCCCCCCCCCCCCC(=O)O[C@@H]1[C@@H](C)[C@@]2(O)[C@@H](C=C(CO)C[C@]3(O)C(=O)C(C)=C[C@@H]23)[C@@H]2C(C)(C)[C@]12OC(C)=O", "value": ">31.3 µg/mL"}
{"compound": "C=C(C)[C@]12C[C@@H](COC(C)=O)[C@@]34OC5(O[C@@H]1[C@@H]3[C@@H]1O[C@]1(CO)[C@@H](O)[C@@]1(O)[C@H]4[C@H]([C@H](C)[C@@H]1OC(=O)c1ccccc1)[C@H](C)CC(OC(=O)c1ccccc1)C(OC(=O)c1ccccc1)CCC[C@H]5O)O2", "read by": "luminescence", "value": ">0.025 µM"}
{"compound": "CC(=O)N1C(=O)C(=Nc2ccc(S(=O)(=O)Nc3nc(C)cc(C)n3)cc2)c2ccccc21", "value": ">125 µg/mL"}
{"compound": "COCOc1ccc(/C=C/C(=O)c2c(O)cc(OCOC)cc2OCOC)cc1", "value": "11 µg/mL"}
{"compound": "O=C(CCCCCCCCCCC(=O)Nc1cc(S(=O)(=O)O)cc2cc(S(=O)(=O)O)cc(O)c12)Nc1cc(S(=O)(=O)O)cc2cc(S(=O)(=O)O)cc(O)c12", "value": "430 µM"}
{"compound": "COCOc1cc(OCC=C(C)C)c2c(=O)c(OCOC)c(-c3ccc(OCOC)c(OCOC)c3)oc2c1", "value": ">100 µg/mL"}
{"compound": "CCCCCOc1nc(Cc2ccccc2)cc(=O)[nH]1", "value": "245 µM"}
{"compound": "CC1C(=O)Nc2c([N+](=O)[O-])cc(Cl)cc2S(=O)(=O)N1CC1OC1(C)C", "read by": "MTT", "value": ">200 µM"}
{"compound": "C=C(C)[C@]12C[C@@H](COC(C)=O)[C@@]34OC5(O[C@@H]1[C@@H]3[C@@H]1O[C@]1(CO)[C@@H](O)[C@@]1(O)[C@H]4[C@H]([C@H](C)[C@@H]1OC(=O)c1ccccc1)[C@H](C)CC(OC(=O)c1ccccc1)C(OC(C)=O)C(OC(=O)c1ccccc1)CC[C@H]5O)O2", "read by": "luminescence", "value": ">0.025 µM"}
{"compound": "CC(C)Nc1cccnc1N1CCN(C(=O)c2cc3cc(NS(C)(=O)=O)ccc3[nH]2)CC1", "read by": "MTT", "value": ">3.83 µM"}
{"compound": "COc1ccc(CN[C@@H](C(=O)N[C@H]2c3ccccc3C[C@H]2O)[C@H](O)[C@H](Cc2ccccc2)NC(=O)[C@@H](NC(=O)OCc2ccccc2)C(C)(C)C)cc1", "value": "17.4 µM"}
{"compound": "CCCCCCCCCCCCCCCC(=O)Nc1cc(S(=O)(=O)O)cc2cc(S(=O)(=O)O)cc(O)c12", "value": "250 µM"}
{"compound": "c1cc(CN2CCCNCCNCCCNCC2)ccc1CN1CCCNCCNCCCNCC1", "read by": "MTT / absorbance", "value": ">50 µM"}
{"compound": "CCCCCCCCCC(=O)O[C@@]12[C@H](OC(C)=O)[C@@H](C)[C@@]3(O)[C@@H](C=C(CO)C[C@]4(O)C(=O)C(C)=C[C@@H]34)[C@@H]1C2(C)C", "read by": "MTT", "value": "3.3 µg/mL"}

Again, the opening 7 rows:

compound | read by | value
C/C=C(\C)C(=O)O[C@@]12[C@H](O)[C@@H](C)[C@@]3(O)[C@@H](C=C(COC(=O)CCCCCCC/C=C\C/C=C\CCCCC)C[C@]4(O)C(=O)C(C)=C[C@@H]34)[C@@H]1C2(C)C | - | >62.5 µg/mL
Cc1cn([C@H]2C[C@H](N=[N+]=[N-])[C@@H](CO)O2)c(=O)[nH]c1=O | - | 35.6 µM
Cc1cn([C@H]2C[C@H](N=[N+]=[N-])[C@@H](COC(=O)CCC(=O)OC[C@H]3O[C@@H]4O[C@H]5[C@H](O)[C@@H](O)[C@@H](O[C@H]6[C@H](O)[C@@H](O)[C@@H](O[C@H]7[C@H](O)[C@@H](O)[C@@H](O[C@H]8[C@H](O)[C@@H](O)[C@@H](O[C@H]9[C@H](O)[C@@H](O)[C@@H](O[C@H]3[C@H](O)[C@H]4O)O[C@@H]9CO)O[C@@H]8CO)O[C@@H]7CO)O[C@@H]6CO)O[C@@H]5CO)O2)c(=O)[nH]c1=O | MTT | 8.38 µg/mL
Cc1c(Cc2ccccc2)[nH]c(=O)[nH]c1=O | - | >1000 µM
Cc1cn([C@H]2C[C@H](O)[C@@H](CO)[Se]2)c(=O)[nH]c1=O | - | >100 µM
Cc1c(Cc2ccccc2)nc(OC(C)C)[nH]c1=O | - | 243 µM
COc1cc(O)ccc1CCCc1cc(O)c2c(c1CC=C(C)C)C=CC(C)(C)O2 | - | 10 µg/mL